Results as given in paper PMC9954444, “SERPIN-Derived Small Peptide (SP16) as a Potential Therapeutic Agent against HIV-Induced Inflammatory Molecules and Viral Replication in Cells of the Central Nervous System” (Cells, 2023).

Assays:
[1] = system: EcoHIV-infected mouse brain; experiment: Inflammatory molecules in brain homogenates of EcoHIV-infected mice, ELISA; assay type: in vivo, C57BL/6J mice; conditions: EcoHIV-infected male mice; SP16 10 μg/kg intranasal every other day added to daily IP cART; brain homogenate; N = 3–5/treatment
[2] = system: EcoHIV-infected mouse brain; experiment: Immunoblotting of LRP-1, NF-κB and Akt in brains of EcoHIV-infected mice; assay type: in vivo, C57BL/6J mice
Method: Proteins in brain cell lysates and postmortem brain homogenates were separated by SDS-PAGE, transferred to PVDF membranes, and subsequently incubated with primary antibodies from Santa Cruz Biotechnology (Dallas, TX, USA), including NF-κB at 1:200 dilution (catalog # sc-8008) and β-actin at 1:200 dilution (catalog # sc-47778). Antibodies from Abcam (Boston, MA, USA), including Akt at dilution 1:500 (catalog # ab-38449) and LRP-1 at dilution 1:50,000 (catalog # ab-92544). After primary antibodies, membranes were incubated with horseradish peroxidase-conjugated secondary antibodies followed by exposure to SuperSignal West Femto Substrate from Thermo Scientific (Waltham, MA, USA). Membranes were visualized using a ChemiDoc imaging system from Bio-Rad (Hercules, CA, USA) and protein expression was calculated using Image J software from NIH (Bethesda, MD, USA).
C57BL/6J mice (Jackson Laboratory, Bay Harbor, ME, USA) were bred in the animal facility at Florida International University. Mice were placed 3–5 per cage and maintained in a controlled temperature and humidity room. The animals were cared for in accordance with the Principles of Animal Care outlined by the National Institutes of Health and approved by the Institutional Animal Care and Use Committee of Florida International University. Protocol Approval: IACUC-21-007-CR01. The EcoHIV-NDK plasmid used was provided by Dr. David Volsky at Mount Sinai school of medicine. The plasmid was transfected in HEK293T cells to generate EcoHIV stocks as previously described. For the in vivo experiments, male mice between the ages of 4–6 months were administrated 1 mL of either saline or 1 × 10^6 pg p24 units of EcoHIV by intraperitoneal (IP) cavity. After 3–4 weeks, animals received cART daily via IP administration. The cART regimen consisted of Emtricitabine, Ritonavir, and Atazanavir at a concentration of 100 mg/kg each, based on previously published literature by others. A subset of cART treated animals received SP16 every other day at concentration of 10 μg/kg, via the intranasal route, as described previously by us. After treatments (at day 5), mice were sacrificed and whole brains, excluding the brainstem and the olfactory bulb, were collected. Half of the recovered brain hemisphere was used for immunohistochemistry and LC-MS/MS while the other half was homogenized and used for biochemical assays. For protein biochemical assays, postmortem brains were homogenized in cell lysis buffer (Thermo Scientific, Waltham, MA, USA) using a bead-beater apparatus (MagNA Lyser, Roche, Indianapolis). Bioavailability of SP16 in the brain was monitored with LC-MS/MS using 703 (triple charged) parent ion and its two daughter ions 129.1 and 84.1. For the in vitro murine experiments, primary mixed glia cultures composed of astrocytes (~80% GFAP immune-positive cells) and microglia (~20% Iba-1 immuno-positive cells) were recovered from midbrains of C57BL/6J pups scarified according to IACUC guidelines as described previously. Cells were seeded in 24-well plates coated with poly-L-lysine (0.1 mg/mL) and maintained for 5–10 days at 37 °C and 5% CO2 [39, 40, 41, 42]. Cells were maintained in their respective growth medium, supplemented with glucose (2 mg/mL) procured from Sigma Aldrich (St. Louis, MO, USA), Na2HCO3 (6 mM) procured from Invitrogen (Waltham, MA, USA), fetal bovine serum-FBS (10%) procured from Hyclone (Logan, UT, USA), and penicillin/streptomycin (1%) procured from Invitrogen (Waltham, MA, USA). […]

[3] = system: primary endothelial cells; experiment: ELISA of inflammatory molecules in endothelial cell supernatant; assay type: cell-based, human; conditions: 12 h
EcoHIV [4] = experiment: p24 gag ELISA in EcoHIV-infected mouse glia; assay type: cell-based, EcoHIV-NDK; conditions: 250 μg/mL SP16, 12 h post-treatment (Figure 9 legend: 24 h)
microglia [5] = experiment: Cell viability, MTT and trypan blue, microglia; assay type: cell-based, human; conditions: range of SP16 concentrations, 24 and 96 h
EcoHIV [6] = experiment: p24 gag in brain homogenates of EcoHIV-infected mice, ELISA; assay type: in vivo, EcoHIV-NDK; conditions: SP16 10 μg/kg intranasal added to cART, brain homogenate
[7] = system: primary mixed glia cultures; experiment: ELISA of inflammatory molecules in mouse brain glia; assay type: cell-based, C57BL/6J mice; conditions: 250 μg/mL SP16, 12 h post-treatment (Figure 9 legend: 24 h)
microglia [8] = experiment: ELISA of inflammatory molecules in microglia supernatant; assay type: cell-based, human; conditions: 12 h
[9] = system: endothelial monolayer of the in vitro BBB; experiment: Trans-endothelial electrical resistance (TEER) of in vitro BBB; assay type: cell-based, human; conditions: SP16 1 and 100 μg/mL on apical side of the BBB, up to 48 h; values remained constant
Method: Human primary endothelial cells were grown to confluence on the upper (luminal) surface of a 3 μm transwell membrane insert and astrocytes and pericytes were grown to confluency on the bottom (apical) surface of the inserts close to the endothelial cells to simulate the structure of the BBB. Transwell inserts were submerged in their respective media, as described previously. The BBB was cultured for approximately 5 days and the inserts were transferred into a 24-well plate containing both HIV-infected and non-infected microglia seeded at the bottom of each well.
Electrical resistance across the endothelial monolayer formed in the transwell of the in vitro BBB was measured using a Millicell ERS microelectrode from Millipore (Bedford, MA, USA) as performed previously. The resulting TEER values were calculated minus the blank media control.

HIV-1SF162 [10] = experiment: HIV p24 gag protein ELISA in microglia; assay type: cell-based; conditions: 12 h
HIV-1SF162 [11] = experiment: HIV p24 gag protein ELISA in astrocytes; assay type: cell-based; conditions: HIV-infected astrocytes; 25 μg/mL SP16; 6 and 12 h
[12] = combination SP16 and cART, brain immunoblotting
[13] = label cART = cART alone, label SP16 = cART in combination with SP16
[14] = HIV-infected endothelial cells, SP16 25 and 250 μg/mL
[15] = endothelial cells, 100 µg/mL SP16, without LRP-1 silencing
[16] = microglia without the BBB insert, SP16 1 and 100 µg/mL

CCCC[C@H](NC(=O)[C@H](CC(C)C)NC(=O)[C@H](Cc1ccccc1)NC(=O)[C@@H](NC(=O)[C@H](Cc1ccccc1)NC(=O)[C@@H]1CCCN1C(=O)[C@H](CCCCN)NC(=O)[C@H](CC(N)=O)NC(=O)[C@H](Cc1ccccc1)NC(=O)[C@H](CCCCN)NC(=O)[C@@H](NC(C)=O)C(C)C)C(C)C)C(=O)N[C@H](C(=O)N[C@@H](CCC(=O)O)C(=O)N[C@@H](CCC(N)=O)C(=O)N[C@@H](CC(N)=O)C(=O)N[C@H](C(=O)N[C@@H](CCCCN)C(N)=O)[C@@H](C)O)[C@@H](C)CC [SP16]
decrease in MCP-1 as compared to cART alone [1]: 48%
decrease in RANTES as compared to cART alone [1]: 35%
decrease in NF-κB as compared to cART alone [2, 12]: about 86%
increase in Akt as compared to cART [2, 12]: about 18%
LRP-1 expression [2, 13]: significant increase
expression of Akt [2, 13]: increase
protein expression level of NF-κB [2, 13]: significant decrease
decrease in secretion of IL-8 [3, 14]: about 15%
decrease in secretion of MCP-1 [3, 14]: about 40%
secreted levels of IL-6 [3, 15]: significant decrease
secreted levels of IL-8 [3, 15]: significant decrease
secretion of IL-6 and IL-8 after silencing the LRP-1 gene ([3]; endothelial cells, siRNA against LRP-1, 48 h post-transfection, SP16 25 and 100 µg/mL): reversal
reduction of viral replication, p24 gag protein (EcoHIV [4]): 30%
cell viability (microglia [5]): did not decrease cell viability
further decrease in p24 gag after exposure with SP16 (EcoHIV [6]): 19%
decrease in secretion levels of IL-6 [7]: about 25%
decrease in secretion levels of MCP-1 [7]: about 80%
IL-8 (microglia [8]; microglia with the BBB inserts, SP16 added to luminal surface): unaffected
secretion of IL-6 (microglia [8]; [16]): decreased
secretion of IL-8 (microglia [8]; [16]): decreased
decrease in secretion of MCP-1 (microglia [8]; non-infected and HIV-infected microglia, plates with and without BBB, SP16 1 and 100 µg/mL, mean of 3 independent experiments): more than 50%
TEER value [9]: about 300 Ωxcm^2
viral load, p24 gag protein (HIV-1SF162 [10]; HIV-infected microglia in wells without the BBB, SP16 1 and 100 µg/mL): attenuated in a concentration-dependent manner
viral-induced p24 levels (HIV-1SF162 [10]; HIV-infected microglia with the BBB inserts): unaffected
reduction of viral titer, HIV p24 gag protein (HIV-1SF162 [11]): about 50%
